In article PMC7527780 one finds Km data, which are given here for 1 substance.

The data set concerns O=C(O)CC(O)(CC(=O)O)C(=O)O. The experiment in a line: purified protein. The conditions noted are these: pH 8.0; 37.0 °C.

As for “AcnA (M. tuberculosis aconitase) (Mycobacterium tuberculosis H37Rv)”, the Michaelis-Menten constant (Km) stood at 3.3 ± 0.2 mM.
